The values that follow come from ChEMBL document CHEMBL1150695, “The synthesis of SO-3, a conopeptide with high analgesic activity derived from Conus striatus” (2003).

The test system of data set [1] is Mus musculus. In words: Analgesic activity in mouse assessed as reaction time required to elicit jumping or hind paw licking at 1.5 ug/kg, intracerebrally after 1.5 hrs by hot plate method. For orientation: Hot-plate and tail-flick tests time the reaction to a heat stimulus.
For data set [2], the system named is Mus musculus. In words: Analgesic activity in mouse assessed as reaction time required for tail flicking at 2.7 ug/kg, intracerebrally after 1 hr by light radiation method.
Data set [3] relates to Mus musculus. In words: Analgesic activity in mouse assessed as reaction time required for tail flicking at 0.7 ug/kg, intracerebrally after 3.3 hrs by light radiation method.
In data set [4] the test system is Mus musculus. In words: Analgesic activity in mouse assessed as reaction time required for tail flicking at 1.7 ug/kg, intracerebrally after 1 hr by light radiation method.
The subject of data set [5] is Mus musculus. In words: Analgesic activity in mouse assessed as reaction time required for tail flicking at 1.2 ug/kg, intracerebrally after 3.3 hrs by light radiation method.
In data set [6] the test system is Mus musculus. In words: Analgesic activity in mouse assessed as reaction time required to elicit jumping or hind paw licking at 1.5 ug/kg, intracerebrally after 4 hrs by hot plate method.
The test system of data set [7] is Mus musculus. In words: Analgesic activity in mouse assessed as reaction time required for tail flicking at 1.7 ug/kg, intracerebrally after 4 hrs by light radiation method.
Data set [8] concerns Mus musculus. In words: Analgesic activity in mouse assessed as reaction time required for tail flicking at 0.7 ug/kg, intracerebrally after 2.5 hrs by light radiation method.
The subject of another data set is Rattus norvegicus. In words: Analgesic activity in rat assessed as increase of threshold for tail withdrawal at 1.2 ug/kg, by mechanical stimulus test.
For data set [9], the system named is Mus musculus. In words: Analgesic activity in mouse assessed as reaction time required for tail flicking at 1.2 ug/kg, intracerebrally after 1 hr by light radiation method.
Data set [10] has as its system Mus musculus. In words: Analgesic activity in mouse assessed as reaction time required for tail flicking at 2.7 ug/kg, intracerebrally after 3.3 hrs by light radiation method.
Data set [11] deals with Mus musculus. In words: Analgesic activity in mouse assessed as reaction time required for tail flicking at 2.2 ug/kg, intracerebrally after 1 hr by light radiation method.
For data set [12], the system named is Mus musculus. In words: Analgesic activity in mouse assessed as reaction time required to elicit jumping or hind paw licking at 1.5 ug/kg, intracerebrally after 0.5 hrs by hot plate method.
The test system of data set [13] is Mus musculus. In words: Analgesic activity in mouse assessed as reaction time required to elicit jumping or hind paw licking at 3 ug/kg, intracerebrally after 4 hrs by hot plate method.
For data set [14], the system named is Mus musculus. In words: Analgesic activity in mouse assessed as reaction time required for tail flicking at 3.2 ug/kg, intracerebrally after 4 hrs by light radiation method.
Data set [15] relates to Mus musculus. In words: Analgesic activity in intracerebrally mouse assessed as reaction time required to elicit jumping or hind paw licking by hot plate method.
The subject of data set [16] is Mus musculus. In words: Analgesic activity in mouse assessed as reaction time required to elicit jumping or hind paw licking at 3 ug/kg, intracerebrally after 1.5 hrs by hot plate method.
Another data set has as its system Carassius carassius. In words: Toxicity against Carassius carassius assessed as survivality at 0.5 to 8.5 ug/gold fish, intramuscular. Particulars: in vivo, im.

With `CC[C@H](C)[C@@H]1NC(=O)[C@H](CCCNC(=N)N)NC(=O)[C@H](CO)NC(=O)[C@@H]2CSSC[C@@H]3NC(=O)[C@H](CO)NC(=O)CNC(=O)[C@H]([C@H](C)O)NC(=O)[C@H](CSSC[C@H](N)C(=O)N[C@@H](CCCCN)C(=O)N[C@@H](C)C(=O)N[C@@H](C)C(=O)NCC(=O)N[C@@H](CCCCN)C(=O)N4CCC[C@H]4C(=O)N2)NC(=O)[C@H](CSSC[C@@H](C(N)=O)NC(=O)[C@H](CCCCN)NC(=O)CNC(=O)[C@H](CO)NC(=O)[C@H](CCCNC(=N)N)NC3=O)NC(=O)[C@H](CC(N)=O)NC(=O)[C@H](Cc2ccc(O)cc2)NC(=O)[C@H](C)NC1=O`, the Activity in the data set with Mus musculus [1] was found to be 39.6 s; in the data set with Mus musculus [2] it was 14.2 s; in the data set with Mus musculus [3] it was 9.8 s; in the data set with Mus musculus [4], 12.2 s; in the data set with Mus musculus [5], 10.5 s; in the data set on Mus musculus [6], 29.4 s. The Activity is 10.4 s in the data set with Mus musculus [7]; 10 s in the data set with Mus musculus [8]; 100 g in the data set on Rattus norvegicus; 10.5 s in the data set with Mus musculus [9]; 10.2 s in the data set on Mus musculus [10]; 14.2 s with Mus musculus [11]. For the same compound, the Activity in the data set with Mus musculus [12] was 49.6 s; in the data set on Mus musculus [13], 51.8 s; in the data set on Mus musculus [14], 11.6 s; in the data set with Mus musculus [16], 59.8 s; with Carassius carassius, “Non-toxic”. The EC50 with Mus musculus [15] came to 0.75 µg/kg.
